# Values from PubChem BioAssay AID1224833 (University of Georgia, 2016).
# Aim: 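Host factors restraining rotavirus as candidate antiviral genes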 (primary screen)
# Cell system: monkey MA104 kidney cells
# Reagent: siRNA pool against human genes, 50 nM
# Time to read-out: 48 h knock-down before infection; read 24 h after infection
# Treatment: infection with rotavirus strain RV3 two days after transfection; infectious dose for this stage not given
# Read-out: 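Rotavirus antigen per well by fluorescent immunoassay, normalised to non-targeting control wells on each plate and given as a standard z-score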
# Scale: z-score vs non-targeting control: higher = more rotavirus replication than with non-targeting control
# Hit rule: In these data the active calls have z-score vs non-targeting control at about -1 or lower, or at about 1 or higher
# Meaning of the calls: active = z-score beyond 1 either way; inactive = z-score within 1 of zero
# The whole screen tested about 12,000 reagents; below is a random part of them. Over the whole deposit, about 5,600 (46%) were called active. 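Active calls cover z-scores past 1 in both directions, so they include lowered as well as raised rotavirus replication.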 Entries without a mark were called inactive. Reagent sequences are not shown.
gene,z-score vs non-targeting control
POLR3A (RNA polymerase III subunit A),-1.53 (active)
PDGFD (platelet derived growth factor D),0.278
PTCRA (pre T cell antigen receptor alpha),0.337
TNFSF11 (TNF superfamily member 11),-0.3
CRABP2 (cellular retinoic acid binding protein 2),-1.28 (active)
IL7R (interleukin 7 receptor),-0.986
DRAM1 (DNA damage regulated autophagy modulator 1),1.56 (active)
ADGRG2 (adhesion G protein-coupled receptor G2),-1.43 (active)
SLC26A8,-0.164
CD300LD (CD300 molecule like family member d),-0.0999
NCKAP5L (NCK associated protein 5 like),-3.68 (active)
RBM33 (RNA binding motif protein 33),1.86 (active)
ATRAID (all-trans retinoic acid induced differentiation factor),1.31 (active)
CORT (cortistatin),-1.36 (active)
RTL3 (retrotransposon Gag like 3),0.171
PHYH (phytanoyl-CoA 2-hydroxylase),-1.12 (active)
TNFRSF13C (TNF receptor superfamily member 13C),0.27
VCY1B (variable charge Y-linked 1B),0.362
CCIN (calicin),-0.224
SLCO5A1,0.264
INTS2 (integrator complex subunit 2),0.954
PSG7 (pregnancy specific beta-1-glycoprotein 7),-0.885
PREX1,-0.542
SLITRK4 (SLIT and NTRK like family member 4),-0.515
SUZ12 (SUZ12 polycomb repressive complex 2 subunit),-0.566
ANKRD27 (ankyrin repeat domain 27),-0.953
"PROC (protein C, inactivator of coagulation factors Va and VIIIa)",-1.02 (active)
ACSL5 (acyl-CoA synthetase long chain family member 5),-1.37 (active)
ZBTB20 (zinc finger and BTB domain containing 20),-0.165
CCDC38 (coiled-coil domain containing 38),1.24 (active)
CST7 (cystatin F),-0.767
"LAMTOR5 (late endosomal/lysosomal adaptor, MAPK and MTOR activator 5)",-0.22
TATDN3 (TatD DNase domain containing 3),-0.769
ITM2A (integral membrane protein 2A),0.768
ZNF678 (zinc finger protein 678),-1.09 (active)
ZFYVE28 (zinc finger FYVE-type containing 28),-1.43 (active)
ZPLD1 (zona pellucida like domain containing 1),-1.25 (active)
SAFB (scaffold attachment factor B),-0.665
DUX5 (double homeobox 5),-0.908
CMKLR1 (chemerin chemokine-like receptor 1),-1.82 (active)
CAMK2N2 (calcium/calmodulin dependent protein kinase II inhibitor 2),1.73 (active)
GP6 (glycoprotein VI platelet),0.978
PTN (pleiotrophin),-0.882
CIMAP1C (ciliary microtubule associated protein 1C),-1.22 (active)
OR3A2 (olfactory receptor family 3 subfamily A member 2),-2.22 (active)
ADGRG3 (adhesion G protein-coupled receptor G3),-0.518
BARX2 (BARX homeobox 2),0.604
TFR2 (transferrin receptor 2),0.911
POTED (POTE ankyrin domain family member D),0.378
SLC35B4,-0.249
"EGFLAM (EGF like, fibronectin type III and laminin G domains)",0.743
TPRX1 (tetrapeptide repeat homeobox 1),-0.632
BSPRY (B-box and SPRY domain containing),1.14 (active)
SYPL2 (synaptophysin like 2),0.0718
MSANTD2 (Myb/SANT DNA binding domain containing 2),0.476
SIAE (sialic acid acetylesterase),-0.553
WDR90 (WD repeat domain 90),-2.24 (active)
"PLEKHH1 (pleckstrin homology, MyTH4 and FERM domain containing H1)",-1.34 (active)
CFAP95 (cilia and flagella associated protein 95),-1.41 (active)
FAT4 (FAT atypical cadherin 4),-0.658
ZNF709 (zinc finger protein 709),0.99
DPP4 (dipeptidyl peptidase 4),-1.23 (active)
DAZAP1 (DAZ associated protein 1),-1.34 (active)
ZNF488 (zinc finger protein 488),1.9 (active)
TTC39A (tetratricopeptide repeat domain 39A),-0.241
"H1-3 (H1.3 linker histone, cluster member)",-0.54
COMTD1 (catechol-O-methyltransferase domain containing 1),-0.979
PLAA (phospholipase A2 activating protein),0.82
HADHA,2.3 (active)
OR4F16 (olfactory receptor family 4 subfamily F member 16),-2.21 (active)
FAM219B (family with sequence similarity 219 member B),1.3 (active)
SPAG6 (sperm associated antigen 6),-0.73
ALX3 (ALX homeobox 3),-0.791
LINC01600 (long independently transcribed non-coding RNA 1600),0.106
ACCS,-0.642
BCAT2 (branched chain amino acid transaminase 2),-0.903
HAX1 (HCLS1 associated protein X-1),-1.86 (active)
TAPBPL (TAP binding protein like),-0.723
INSL3 (insulin like 3),-0.956
MAGEB3 (MAGE family member B3),-0.901
MIOS (meiosis regulator for oocyte development),-1.06 (active)
KDM3A (lysine demethylase 3A),-2.06 (active)
NDUFS2 (NADH:ubiquinone oxidoreductase core subunit S2),0.909
GOLGA7B (golgin A7 family member B),1.61 (active)
TMEM161A (transmembrane protein 161A),-0.883
TRA2A (transformer 2 alpha homolog),-0.573
TBC1D4 (TBC1 domain family member 4),0.76
MPHOSPH8 (M-phase phosphoprotein 8),0.985
IZUMO2 (IZUMO family member 2),-1.45 (active)
SPMIP10 (sperm microtubule inner protein 10),3.36 (active)
SNTB1 (syntrophin beta 1),0.501
ALDH9A1 (aldehyde dehydrogenase 9 family member A1),-1.49 (active)
PRPF38A (pre-mRNA processing factor 38A),-0.891
KNG1 (kininogen 1),-0.791
DCX (doublecortin),-0.0469
BIN1 (bridging integrator 1),0.313
ROBO1 (roundabout guidance receptor 1),-1.47 (active)
CRYGD (crystallin gamma D),-0.183
UQCC2 (ubiquinol-cytochrome c reductase complex assembly factor 2),0.709
IFT81 (intraflagellar transport 81),-1.14 (active)
WRAP53 (WD repeat containing antisense to TP53),1.86 (active)
FAM81B (family with sequence similarity 81 member B),0.484
GYS2 (glycogen synthase 2),-1.58 (active)
YBX1 (Y-box binding protein 1),-0.987
RGPD1 (RANBP2 like and GRIP domain containing 1),-1.05 (active)
SS18 (SS18 subunit of BAF chromatin remodeling complex),-1.31 (active)
KIF3B (kinesin family member 3B),-1.41 (active)
FGF4 (fibroblast growth factor 4),1.83 (active)
EMP2 (epithelial membrane protein 2),0.384
ZNF493 (zinc finger protein 493),-0.295

6 of these entries, set out differently:
gene | z-score vs non-targeting control
IZUMO2 (IZUMO family member 2) | -1.45 (active)
SPMIP10 (sperm microtubule inner protein 10) | 3.36 (active)
SNTB1 (syntrophin beta 1) | 0.501
ALDH9A1 (aldehyde dehydrogenase 9 family member A1) | -1.49 (active)
PRPF38A (pre-mRNA processing factor 38A) | -0.891
KNG1 (kininogen 1) | -0.791
